The results in this text go back to patent publication US20050124638A1, “Benzimidazoles and analogs thereof as antivirals” (priority 2003, published 2005).

Assay [1] has as its system HCV RNA levels in Ntat2ANeo replicon containing cell line. Kind of assay: Replicon assay (Ntat2ANeo replicon cells, quantitative RT-PCR of HCV RNA). As to conditions: read-out: Replicon IC50; Table 8. The class given is cell-based.
Assay [2] relates to HCV IRES stem IIa RNA target. As to the kind of experiment: Mass spectrometry based binding assay. As to conditions: read-out: Kd to IIa target; Table 8.

On to `CN(C)CCCn1c(N)nc2ccc3c(c21)CC(CN(C)C)O3` (centres unmarked) [IBIS00560047], for which the IC50 in assay [1] was 1500 nM. In addition, in assay [2], the equilibrium dissociation constant (Kd) is 2100 nM.
